One data set in a line: Kinetic solubility. Conditions: 10 mm PBS with 2% DMSO at 37 °C. In kind it is physicochemical.
Data set [1] concerns the target T1, LecA (Pseudomonas aeruginosa, UniProt Q05097). Put plainly: Competitive binding assay for LecA based on fluorescence polarization. The arrangement: species or system P. aeruginosa. Conditions: read-out: IC50 (LecA). The method, then: The four thiols 17, 18, 24 and 25 as well as three disulfides 26a, 26b and 27 were then evaluated for their activity against LecA using a competitive binding assay based on fluorescence polarization (Fig. 4B). […]
Expression and purification of LasB and LecA
LecA was expressed recombinantly using E. coli pET25-pail, whereas LasB was isolated from P. aeruginosa PA14 culture supernatant as described previously. 1,2
LecA labeling with fluorescein was performed in analogy to Sommer et al. 3 and Beshr et al.4 To this end fluorescein isothiocyanate (FITC) was freshly dissolved in carbonate-bicarbonate buffer with pH of 9.3 at a concentration of 3 mg mL-1. Subsequently, 66 µL of this FITC solution was combined with 1.4 mL of LecA at a concentration of 60 µM in carbonate-bicarbonate buffer, pH 9.3. The resulting mixture was then incubated at 25 °C with shaking at 500 rpm for 1 hour. […]
The procedure for the fluorescence polarization-based competitive binding assay for LecA was performed as reported by Joachim et al. with modifications. […] Fluorescence intensities were recorded on a PheraStar FS plate reader (BMG Labtech GmbH, Germany) and polarization was calculated using MARS Data Analysis (BMG Labtech).
IC50 values were obtained from a four-parameter curve-fitting procedure. Averages and standard deviations were calculated from at least three independent experiments of technical
For orientation: In fluorescence polarisation assays a small probe gives low polarisation when free and higher when bound to something large.

Chains of the proteins cited; added tags and fusions are not shown.
UniProt Q05097, whole entry: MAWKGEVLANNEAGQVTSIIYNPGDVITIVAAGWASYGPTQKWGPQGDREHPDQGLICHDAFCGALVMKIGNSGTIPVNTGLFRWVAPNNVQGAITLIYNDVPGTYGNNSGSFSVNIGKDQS

Data set [2] addresses T1, LecA. Kind of data set: Surface plasmon resonance direct LecA binding assay (immobilized LecA). The arrangement: species or system P. aeruginosa. Conditions: SPR; for Kd: kinetic fit. The text has this:
Therefore, we measured the LecA affinity of thiol derivatives 17, 18, 24 and 25 and disulfides 26a, 26b and 27 using surface plasmon resonance (SPR) with LecA covalently immobilized on a sensor chip via amide coupling (Fig. 5 and Table 1). […] Thiols 17, 18, 24 and 25 reached equilibrium binding within 60 s of interaction with immobilized LecA, followed by their dissociation with moderate off-rates. […] Due to the very small off-rates for 26a, 26b and 27, these values have been calculated based on the response at […] of the injected compound and monitoring their dissociation for 30 min (Fig. S2 ^†). The observed very tight binding to immobilized LecA required optimization of the protein surface regeneration procedure. Effective conditions were identified as one injection of 50 mm isopropyl β-D-thiogalactoside in the running buffer, followed by one injection of 20 mm EDTA disodium salt in water. The regenerated chip surface was controlled using an injection of 1 to ensure that the activity of LecA was maintained.
Surface plasmon resonance direct LecA binding assay
SPR experiments were performed on a Reichert 2-channel SPR SR7500DC (Reichert Technologies Life Sciences, Buffalo, NY, USA) at 25 °C. For LecA immobilization, the surface of a HC1000M sensor chip (XanTec bioanalytics GmbH, Düsseldorf, Germany) was preequilibrated with borate buffer (1 M NaCl, 0.1 M sodium borate pH 9.0), followed by activation of the polycarboxylate hydrogel with 0.2 M N-hydroxysuccinimide (NHS) and 0.4 M 1-ethyl-3-(3-dimethylaminopropyl)carbodiimide hydrochloride (EDC‧HCl) in MilliQ water in both channels for 240 s (flow rate 10 μL/min) until the binding response reached 1200 RU.
Then, LecA (100 μg/mL) in 10 mM sodium acetate pH 3.6 was injected on the activated chip surface of one channel (injection time 420 s, flow rate 10 μL/min) and 6000 RU of LecA were immobilized. Unreacted NHS esters in both channels were blocked with 1 M ethanolamine hydrochloride in MilliQ water pH 8.5 (injection time 360 s, flow rate 10 μL/min).
Test compound stock solutions were prepared in DMSO (20 mM stocks for monovalent LecA inhibitors, 20 µM stocks for divalent LecA inhibitors) and were subsequently diluted in 10 mM phosphate buffer (pH 7.4, 2.7 mM KCl, 137 mM NaCl, 100 μM CaCl2) to obtain solutions with […]
Monovalent inhibitors 17, 18, 24 and 25 were injected for 120 s (flow rate 50 μL/min) at concentrations ranging from 0.39–100 µM. Divalent inhibitors 26a, 26b and 27 were injected for 120 s (flow rate 50 μL/min) at concentrations 50–350 nM. The chip surface was regenerated after each inhibitor injection by one injection of 50 mM IPTG in running buffer (10 mM phosphate buffer, pH 7.4, 2.7 mM KCl, 137 mM NaCl, 100 μM CaCl2, 2% DMSO) followed by one injection 20 mM EDTA disodium salt in MilliQ water, and then followed by three injections of the running buffer (injection time 120 s, flow rate 50 μL/min). 100 µM pNP-Gal (1) in running buffer was injected before each analyte to monitor and ensure chip regeneration and […]
Affinity/equilibrium analysis was performed for 1 on the same chip. A stock solution of 1 (10 mM in PBS/CaCl2 buffer) was prepared, then diluted to the required concentrations in running buffer and injected at 1.56–400 µM (injection time 60 s, flow rate 50 μL/min) without regeneration steps. Data analysis was performed using TraceDrawer software (Ridgeview Instruments) using a 1:1 binding model to fit the experimental data. Spikes at the end of the injections were removed in TraceDrawer during the data analysis.

A word on the IC50: it is the concentration at which inhibition is half-maximal. One may read the Kd as the constant that tells how readily two partners part at equilibrium. Low values mean tighter binding, high ones weaker binding.

Structures are written as SMILES. Converted amounts (≈) assume the structure as drawn.

In the case of `O=C(Nc1ccc(S[C@@H]2O[C@H](CO)[C@H](O)[C@H](O)[C@H]2O)cc1)C(Cc1ccccc1)SSC(Cc1ccccc1)C(=O)Nc1ccc(S[C@@H]2O[C@H](CO)[C@H](O)[C@H](O)[C@H]2O)cc1` (single isomer, unassigned) [26b], the kinetic solubility in “Kinetic solubility” was found to be 300 µM (≈ 270 µg/mL). The IC50 on LecA [1] was found to be 3000 nM. Also, at LecA [2], the k a is reported as 4.6 ± 0.7 ×10^4 M^−1 s^−1, the k d was 3.0 ± 1.2 ×10^−4 s^−1 and the equilibrium dissociation constant (Kd) came out at 6.6 nM.

Regarding `O=C(Nc1ccc(S[C@@H]2O[C@H](CO)[C@H](O)[C@H](O)[C@H]2O)cc1)C(Cc1ccccc1)SSC(Cc1ccccc1)C(=O)Nc1ccc(S[C@@H]2O[C@H](CO)[C@H](O)[C@H](O)[C@H]2O)cc1` (single isomer, unassigned) [26a], the kinetic solubility in “Kinetic solubility” is 300 µM (≈ 270 µg/mL). Further, at LecA [1], the IC50 was found to be 4700 nM. At LecA [2], the k a is listed as 3.8 ± 0.8 ×10^4 M^−1 s^−1, the k d was 2.8 ± 0.3 ×10^−4 s^−1 and the Kd stood at 7.4 nM.
